Results of unrelated studies side by side (data: NIAID ChemDB).

Shared fields: target-level tests; agent: HIV-1; target: Protease

Blank or dashed fields: not listed here. Fold resistance: result on the changed form divided by that on wild type. Rows are shuffled and stem from different studies. ICn is the concentration giving n% inhibition. Inhibition is in % at the dose shown (toxicity tests: loss of growth or viability).

SMILES | dose | endpoint | read by | changes | strain | value
CC(C)(C)OC(=O)N[C@@H](Cc1ccccc1)C(O)C(O)[C@H](Cc1ccccc1)NC(=O)OC(C)(C)C | 0.01 µM | inhibition | fluorescence |  |  | 40%
Cc1cc(SC2=C(O)C[C@@](CCc3ccc(O)cc3)(C(C)C)OC2=O)c(C(C)(C)C)cc1CO |  | fold resistance | HPLC / absorbance | PR-V32I |  | 3.3
Cc1cccc(C)c1OCC(=O)N[C@@H](Cc1ccccc1)[C@H](O)CN1CC[C@@H](Sc2ccncc2)C[C@H]1C(=O)NC(C)(C)C |  | fold resistance | fluorescence | PR-I84V |  | 14
CC(C)(C)OC(=O)NC(Cc1ccccc1)C(O)C(Cc1ccccc1)NC(=O)[C@H](CC(N)=O)NC(=O)OCc1ccccc1 | 0.1 µM | inhibition | fluorescence |  |  | 95%
Cc1cc(SC2=C(O)C[C@@](CCc3ccc(N)cc3)(C(C)C)OC2=O)c(C(C)(C)C)cc1CO |  | fold resistance | HPLC / absorbance | PR-V82F |  | 2.5
CC(C)[C@H](N)C(=O)N[C@@H](Cc1ccccc1)C(O)[C@H](Cc1ccccc1)NC(=O)[C@@H](NC(=O)OCc1ccccc1)C(C)C | 0.01 µM | inhibition | fluorescence |  |  | 52%
COc1ccccc1CNC(=O)[C@H]1N(C(=O)[C@@H](O)[C@H](Cc2ccccc2)NC(=O)c2cccc(O)c2C)CSC1(C)C | 0.05 µM | inhibition | HPLC |  |  | 65.8%
CC(C)(C)OC(=O)N[C@@H](Cc1ccccc1)[C@@H](O)C[C@@H](Cc1ccc(OCCN2CCOCC2)cc1)C(=O)N[C@H]1c2ccccc2C[C@H]1O |  | fold resistance | fluorescence | PR-R8Q |  | 2.75
O=C(CCc1ccccc1)C(F)Cc1ccccc1 | 270 µM | inhibition | fluorescence |  |  | 95%
CC(C)[C@H](NC(=O)N(C)Cc1ccccn1)C(=O)N[C@@H](Cc1ccccc1)[C@H](O)[C@H](O)[C@H](Cc1ccccc1)NC(=O)[C@@H](NC(=O)N(C)Cc1ccccn1)C(C)C |  | fold resistance | fluorescence | PR-M46I |  | 1.43
O=C1CC(c2ccc(O)c(O)c2)Oc2cc(O)cc(O)c21 | 50 µg/mL | inhibition | fluorescence |  |  | 19.5%
CC(C)[C@H](NC(=O)N(C)Cc1ccccn1)C(=O)N[C@@H](Cc1ccccc1)[C@@H](O)[C@H](O)[C@H](Cc1ccccc1)NC(=O)[C@@H](NC(=O)N(C)Cc1ccccn1)C(C)C |  | fold resistance | fluorescence | PR-R8Q |  | 23
Cc1cccc(C)c1OCC(=O)N[C@@H](Cc1ccccc1)[C@H](O)C(=O)N1CSC(C)(C)[C@H]1C(=O)NCc1cccnc1 | 0.05 µM | inhibition | HPLC |  |  | 86.8%
CC[C@H](C)[C@H](NC(=O)OCc1ccccc1)C(=O)N[C@@H](Cc1ccccc1)C(O)[C@H](Cc1ccccc1)NC(=O)OC(C)(C)C | 0.01 µM | inhibition | fluorescence |  |  | 36%
O=C1N(Cc2ccc(CO)cc2)[C@H](COc2ccccc2)[C@H](O)[C@@H](O)[C@@H](COc2ccccc2)N1Cc1ccc(CO)cc1 |  | fold resistance | fluorescence | PR-L90M PR-I84V | IIIB | 13.5
Cc1c(O)cccc1C(=O)N[C@@H](Cc1ccccc1)[C@H](O)C(=O)N1CSC(C)(C)[C@H]1C(=O)NCc1ccncc1 | 0.05 µM | inhibition | HPLC |  |  | 34.5%
COc1cc(O)c2c(=O)c(O)c(-c3ccc(O)c(O)c3)oc2c1 | 50 µg/mL | inhibition | fluorescence |  |  | 41.6%
O=S1(=O)N(Cc2ccc(-c3cccs3)cc2)[C@H](COc2ccccc2)[C@H](O)[C@@H](O)[C@@H](COc2ccccc2)N1Cc1ccc(-c2cccs2)cc1 |  | fold resistance |  | PR-I84V |  | 30.4
CC(C)[C@H](NC(=O)N(C)Cc1ccccn1)C(=O)N[C@@H](Cc1ccccc1)[C@H](O)[C@H](O)[C@H](Cc1ccccc1)NC(=O)[C@@H](NC(=O)N(C)Cc1ccccn1)C(C)C |  | fold resistance | HPLC | PR-A71T |  | 1.2
CCC(C)[C@H](NC(=O)CCCCCCCCCCCCCCC(=O)N[C@@H](CC(C)C)C(=O)N[C@@H](CC(N)=O)C(=O)N[C@@H](Cc1ccccc1)C(=O)O)C(=O)N[C@H](C(=O)N[C@@H](CC(C)C)C(=O)N[C@@H](Cc1c[nH]c2ccccc12)C(=O)O)C(C)O |  | IC50 | fluorescence |  |  | 1.1 µM
CC(C)C[C@H](NC(=O)[C@@H](N)[C@@H](C)O)C(=O)N[C@@H](CC(N)=O)C(=O)N[C@@H](Cc1ccccc1)B(O)O |  | fold resistance | HPLC | PR-M46I V82F I84V L90M |  | 6.94
Cc1c(O)cccc1C(=O)N[C@@H](Cc1ccccc1)[C@H](O)C(=O)N1CSC(C)(C)[C@H]1C(=O)NCc1ccc2c(c1)OCO2 | 0.05 µM | inhibition | HPLC |  |  | 67.6%
CC(C)[C@H](NC(=O)OCc1ccccc1)C(=O)N[C@@H](CSc1ccccn1)[C@@H](O)[C@H](O)[C@H](CSc1ccccn1)NC(=O)[C@@H](NC(=O)OCc1ccccc1)C(C)C | 0.01 µM | inhibition | fluorescence |  |  | 30%
Cc1c(O)cccc1C(=O)N[C@@H](Cc1ccccc1)[C@H](O)C(=O)N1CSC(C)(C)[C@H]1C(=O)NC1CCc2ccccc21 | 0.05 µM | inhibition | HPLC |  |  | 91.2%
CC(C)[C@H](NC(=O)OCc1ccccc1)C(=O)N[C@@H](Cc1ccccc1)[C@H](O)[C@H](O)[C@H](Cc1ccccc1)NC(=O)OC(C)(C)C | 0.005 µM | inhibition | fluorescence |  |  | 86%
O=c1cc(-c2ccc(O)c(O)c2)oc2cc(O)cc(O)c12 | 50 µg/mL | inhibition | HPLC |  |  | 42.4%
Cc1cc(C)c(CNC(=O)[C@H]2N(C(=O)[C@@H](O)[C@H](Cc3ccccc3)NC(=O)COc3c(C)cccc3C)CSC2(C)C)c(=O)[nH]1 | 0.05 µM | inhibition | HPLC |  |  | 20.9%
O=C1OC2[C@@H](CO)O[C@@H](OC(=O)c3cc(O)c(O)c(O)c3)[C@H](OC(=O)c3cc(O)c(O)c4c3[C@@H]3C1=CC(=O)C(O)(O)C3(O)O4)[C@H]2O | 50 µg/mL | inhibition | HPLC |  |  | 0%
CCOc1ccccc1CNC(=O)[C@H]1N(C(=O)[C@@H](O)[C@H](Cc2ccccc2)NC(=O)c2cccc(O)c2C)CSC1(C)C | 0.05 µM | inhibition | HPLC |  |  | 49.7%

The first 2 rows once more:

SMILES,dose,endpoint,read by,changes,strain,value
CC(C)(C)OC(=O)N[C@@H](Cc1ccccc1)C(O)C(O)[C@H](Cc1ccccc1)NC(=O)OC(C)(C)C,0.01 µM,inhibition,fluorescence,,,40%
Cc1cc(SC2=C(O)C[C@@](CCc3ccc(O)cc3)(C(C)C)OC2=O)c(C(C)(C)C)cc1CO,,fold resistance,HPLC / absorbance,PR-V32I,,3.3